PubChem BioAssay AID624099 – ICCB-Longwood – 2012
Shown is a random part of about 21,000 deposited reagents. Of all reagents, 497 (2.4%) are marked active. 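Higher z means weaker E2 silencing; only reporter increases were scored, and knock-downs that hurt cell survival may mask genuine repressor factors.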 Unmarked entries are inactive. The numbers tell different reagents against one gene apart. Reagent sequences are not shown.

- Assay: 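Human genes that papillomavirus E2 requires to repress the HPV18 LCR promoter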 (primary screen)
- Cells: human C33A cervical carcinoma cells (HPV-negative) stably expressing BPV1 E2 and an HPV18 LCR luciferase reporter
- Reagents: siRNA pool against human genes, 40 nM
- Timing: 72 h
- Measurement: 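HPV18 LCR reporter light per well, converted to plate-wise z-scores that exclude control wells, and averaged over triplicate plates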
- Scale: mean z-score and z-score: higher = stronger reporter signal, weaker E2 silencing
- Active means: 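Hit if mean z-score reaches 2 and two or more of three replicate z-scores also reach 2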

gene,reagent,mean z-score,"z-score, replicate A","z-score, replicate B","z-score, replicate C"
DEXI (GeneID 28955),1,-0.58,-0.6,-0.41,-0.73
RABGGTB (GeneID 5876),1,0.75,1.29,0.69,0.28
RBM23 (GeneID 55147),1,-1.02,-1.3,-1.53,-0.24
DELE1 (GeneID 9812),1,0,0,0.21,-0.2
NBEAL2 (GeneID 23218),1,1.66,1.4,2.39,1.2
NR0B2 (GeneID 8431),1,0.52,0.69,0.51,0.35
OIT3 (GeneID 170392),1,0.26,-0.09,0.74,0.12
FBXO36 (GeneID 130888),1,-0.73,-0.84,-0.46,-0.89
CDCA7L (GeneID 55536),1,-0.07,0.03,-0.09,-0.16
QRICH2 (GeneID 84074),1,-1.75,-1.44,-1.98,-1.84
IGKC (GeneID 3514),1,-1.18,-1.07,-1.33,-1.15
MLST8 (GeneID 64223),1,0.81,1,0.16,1.26
EIF4ENIF1 (GeneID 56478),1,-0.66,-0.7,-0.67,-0.59
OR11H6 (GeneID 122748),1,-1.69,-1.58,-1.3,-2.2
ELMOD3 (GeneID 84173),1,-1.04,-0.81,-1.3,-1.02
APLF (GeneID 200558),1,-1.1,-0.94,-1.31,-1.06
HBP1 (GeneID 26959),1,-0.18,-0.45,-0.34,0.24
SENP7 (GeneID 57337),1,0.5,0.83,0.46,0.22
SLC9A3 (GeneID 6550),1,0.28,0.2,0.49,0.15
LOC390704 (retired record) (GeneID 390704),1,1.91,2.06,1.99,1.7
OTUD4 (GeneID 54726),1,2.1 (active),2.26,2.38,1.66
DNAJC6 (GeneID 9829),1,0.89,0.74,1.11,0.82
LOC388898 (retired record) (GeneID 388898),1,-1.11,-1.1,-0.82,-1.42
TSBP1-AS1 (GeneID 101929163),1,-0.09,-0.18,-0.02,-0.07
EPB41L4A-AS1 (GeneID 114915),1,0.05,-0.16,0.23,0.08
LOC107986845 (GeneID 107986845),1,1.96,1.91,2.08,1.9
LOC107986845 (GeneID 107986845),2,1.42,0.88,2.03,1.35
DNM1P30 (GeneID 728388),1,-0.21,-0.54,-0.11,0.01
LOC402532 (retired record) (GeneID 402532),1,-0.52,-0.62,-0.45,-0.51
SLC66A2 (GeneID 80148),1,0.05,0.54,-0.47,0.09
LOC391844 (retired record) (GeneID 391844),1,-0.53,-0.72,-0.48,-0.41
SMC1A (GeneID 8243),1,-0.41,-0.61,-0.38,-0.24
RTCA (GeneID 8634),1,-1.02,-0.95,-0.98,-1.12
MID1IP1 (GeneID 58526),1,-0.56,-0.17,-0.54,-0.99
ZC3H18 (GeneID 124245),1,-0.83,-0.8,-0.55,-1.13
OR4Q3 (GeneID 441669),1,-0.69,-0.43,-0.67,-0.99
JAM3 (GeneID 83700),1,1.27,1.45,1.28,1.07
ITGA2 (GeneID 3673),1,0.09,0,0,0.28
GRB14 (GeneID 2888),1,-0.1,-0.13,-0.13,-0.03
C1QBP (GeneID 708),1,0.53,0.74,0.57,0.27
NECAB2 (GeneID 54550),1,-0.69,-0.78,-0.61,-0.68
UBE2G2 (GeneID 7327),1,0.93,1.12,0.84,0.83
CBLC (GeneID 23624),1,0.64,0.37,0.62,0.94
SLC9A7 (GeneID 84679),1,0.25,0.2,0.41,0.15
TEX30 (GeneID 93081),1,0.45,0.57,0.52,0.25
ARL13A (GeneID 392509),1,0.84,0.66,0.95,0.91
MKNK2 (GeneID 2872),1,-1.02,-1.12,-0.75,-1.21
COG1 (GeneID 9382),1,0.11,-0.04,0.32,0.05
EMC3 (GeneID 55831),1,-0.64,-0.89,-0.4,-0.63
SLC1A2 (GeneID 6506),1,0.16,0.27,0.02,0.19
RNASEH2A (GeneID 10535),1,-0.05,0,-0.13,0
LOC389405 (retired record) (GeneID 389405),1,-0.82,-0.75,-1.06,-0.65
WDFY2 (GeneID 115825),1,0.39,0.37,0.2,0.59
MAZ (GeneID 4150),1,-0.33,-0.12,-0.24,-0.65
ATP5MF (GeneID 9551),1,-0.89,-1.13,-0.64,-0.9
CGB3 (GeneID 1082),1,-0.55,-0.42,-0.66,-0.55
RPRD2 (GeneID 23248),1,-0.37,-0.24,-0.78,-0.1

Copied from the entries so far, 8 entries:
gene,reagent,mean z-score,"z-score, replicate A","z-score, replicate B","z-score, replicate C"
NBEAL2 (GeneID 23218),1,1.66,1.4,2.39,1.2
NR0B2 (GeneID 8431),1,0.52,0.69,0.51,0.35
OIT3 (GeneID 170392),1,0.26,-0.09,0.74,0.12
FBXO36 (GeneID 130888),1,-0.73,-0.84,-0.46,-0.89
CDCA7L (GeneID 55536),1,-0.07,0.03,-0.09,-0.16
QRICH2 (GeneID 84074),1,-1.75,-1.44,-1.98,-1.84
IGKC (GeneID 3514),1,-1.18,-1.07,-1.33,-1.15
MLST8 (GeneID 64223),1,0.81,1,0.16,1.26
